Earlier results in US8221566B1.
Only a part of the results on these compounds is given; other tests are left out.

Tested on: Pseudomonas aeruginosa
Settings: aqueous, in 5 min; cited from earlier work

Substance: hydrogen fluoride
- Concentration of aq. HF that destroys the organism: 200 ppm
